PMC11115230
For at least one entry, the source does not settle the construct or the ends of the probe. Results from cells or extracts need not show a direct contact. For part of these data: Where a protein sequence is shown, tags need not be part of it.

Legend:
Assay in all cases: DNA pull-down
[1] = target: hnRNPK, HeLa nuclear extract (human) (UniProt P61978); conditions: Pull-down: 20 mM HEPES pH 7.9, 100 mM KCl, 10% glycerol, 0.05% CHAPS, poly(dIdC), oligo B, acetylated BSA, room temperature; protein in an extract; label: 5' biotin-TEG on antisense strand
[2] = target: PARP1, HeLa nuclear extract (human) (UniProt P09874); conditions: Pull-down: 20 mM HEPES pH 7.9, 100 mM KCl, 10% glycerol, 0.05% CHAPS, poly(dIdC), oligo B, acetylated BSA, room temperature; protein in an extract; label: 5' biotin-TEG on antisense strand
[3] = target: T1, MIDEAS, PBMC nuclear extract (human) (UniProt Q6PJG2); conditions: Pull-down: 20 mM HEPES pH 7.9, 100 mM KCl, 10% glycerol, 0.05% CHAPS, poly(dIdC), oligo B, acetylated BSA, room temperature; protein in an extract; label: 5' biotin-TEG on antisense strand
T1 sequence (looked up, limits assumed): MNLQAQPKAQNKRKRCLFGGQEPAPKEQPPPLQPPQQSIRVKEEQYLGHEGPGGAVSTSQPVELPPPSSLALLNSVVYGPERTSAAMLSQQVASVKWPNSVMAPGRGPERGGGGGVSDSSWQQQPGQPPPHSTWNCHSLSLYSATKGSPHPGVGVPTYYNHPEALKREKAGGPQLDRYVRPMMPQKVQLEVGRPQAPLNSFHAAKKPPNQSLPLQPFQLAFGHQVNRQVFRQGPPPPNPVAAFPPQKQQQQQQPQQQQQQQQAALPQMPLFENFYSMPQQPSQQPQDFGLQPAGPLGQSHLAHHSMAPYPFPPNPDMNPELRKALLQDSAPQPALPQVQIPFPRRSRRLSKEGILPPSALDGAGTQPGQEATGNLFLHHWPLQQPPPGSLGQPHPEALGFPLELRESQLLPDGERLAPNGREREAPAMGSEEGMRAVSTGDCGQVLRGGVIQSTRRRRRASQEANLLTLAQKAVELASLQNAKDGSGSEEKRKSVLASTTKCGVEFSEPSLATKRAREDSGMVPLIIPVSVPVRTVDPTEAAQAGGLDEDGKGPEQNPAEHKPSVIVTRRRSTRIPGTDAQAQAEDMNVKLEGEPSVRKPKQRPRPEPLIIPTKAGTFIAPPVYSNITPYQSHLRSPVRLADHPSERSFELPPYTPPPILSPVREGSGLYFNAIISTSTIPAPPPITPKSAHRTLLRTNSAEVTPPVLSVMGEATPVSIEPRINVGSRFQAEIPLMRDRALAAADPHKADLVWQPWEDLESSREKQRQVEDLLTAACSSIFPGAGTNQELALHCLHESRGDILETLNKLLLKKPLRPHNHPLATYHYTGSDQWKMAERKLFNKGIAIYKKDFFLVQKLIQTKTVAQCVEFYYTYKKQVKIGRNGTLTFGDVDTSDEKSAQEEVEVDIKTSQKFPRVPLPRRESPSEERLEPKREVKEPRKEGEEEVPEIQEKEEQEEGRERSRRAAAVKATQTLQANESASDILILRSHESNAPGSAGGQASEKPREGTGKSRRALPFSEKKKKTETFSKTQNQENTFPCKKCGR

[4] = target: T2, DNTTIP1, PBMC nuclear extract (human) (UniProt Q9H147); conditions: Pull-down: 20 mM HEPES pH 7.9, 100 mM KCl, 10% glycerol, 0.05% CHAPS, poly(dIdC), oligo B, acetylated BSA, room temperature; protein in an extract; label: 5' biotin-TEG on antisense strand
T2 sequence (looked up, limits assumed): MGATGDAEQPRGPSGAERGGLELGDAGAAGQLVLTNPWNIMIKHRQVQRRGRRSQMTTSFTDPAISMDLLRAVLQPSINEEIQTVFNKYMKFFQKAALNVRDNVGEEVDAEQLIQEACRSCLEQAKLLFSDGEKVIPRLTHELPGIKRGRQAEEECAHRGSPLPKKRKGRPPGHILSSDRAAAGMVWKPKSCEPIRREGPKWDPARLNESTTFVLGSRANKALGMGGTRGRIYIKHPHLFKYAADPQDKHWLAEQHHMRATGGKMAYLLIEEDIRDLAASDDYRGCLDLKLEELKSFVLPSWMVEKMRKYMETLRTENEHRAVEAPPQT

[5] = target: HDAC1, PBMC nuclear extract (human) (UniProt Q13547); conditions: Pull-down: 20 mM HEPES pH 7.9, 100 mM KCl, 10% glycerol, 0.05% CHAPS, poly(dIdC), oligo B, acetylated BSA, room temperature; protein in an extract; label: 5' biotin-TEG on antisense strand
[6] = target: T3, AP4, HeLa nuclear extract (human) (UniProt Q01664); conditions: Pull-down: 20 mM HEPES pH 7.9, 100 mM KCl, 10% glycerol, 0.05% CHAPS, poly(dIdC), oligo B, acetylated BSA, room temperature; protein in an extract; label: 5' biotin-TEG on antisense strand
T3 sequence (looked up, limits assumed): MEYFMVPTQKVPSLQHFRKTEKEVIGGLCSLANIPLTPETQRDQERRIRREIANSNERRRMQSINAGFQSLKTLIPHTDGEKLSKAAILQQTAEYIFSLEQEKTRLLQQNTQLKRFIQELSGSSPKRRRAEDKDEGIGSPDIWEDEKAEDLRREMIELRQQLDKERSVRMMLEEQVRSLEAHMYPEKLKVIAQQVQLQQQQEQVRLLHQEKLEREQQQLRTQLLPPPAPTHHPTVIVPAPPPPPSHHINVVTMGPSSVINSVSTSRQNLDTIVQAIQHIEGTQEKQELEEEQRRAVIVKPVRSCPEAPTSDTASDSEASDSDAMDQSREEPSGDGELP

[7] = target: T4, DNTTIP1, Jurkat nuclear extract (human) (UniProt Q9H147); conditions: Pull-down: 20 mM HEPES pH 7.9, 100 mM KCl, 10% glycerol, 0.05% CHAPS, poly(dIdC), oligo B, acetylated BSA, room temperature; protein in an extract; label: 5' biotin-TEG on antisense strand
T4 sequence (looked up, limits assumed): T2 sequence (looked up, limits assumed)

[8] = target: T5, DNTTIP1, HeLa nuclear extract (human) (UniProt Q9H147); conditions: enhanced in nocodazole-arrested cells; Pull-down: 20 mM HEPES pH 7.9, 100 mM KCl, 10% glycerol, 0.05% CHAPS, poly(dIdC), oligo B, acetylated BSA, room temperature; protein in an extract; label: 5' biotin-TEG on antisense strand
T5 sequence (looked up, limits assumed): T2 sequence (looked up, limits assumed)

[9] = target: T6, NAT10, HeLa nuclear extract (human) (UniProt Q9H0A0); conditions: enhanced in nocodazole-arrested cells; Pull-down: 20 mM HEPES pH 7.9, 100 mM KCl, 10% glycerol, 0.05% CHAPS, poly(dIdC), oligo B, acetylated BSA, room temperature; protein in an extract; label: 5' biotin-TEG on antisense strand
T6 sequence (looked up, limits assumed): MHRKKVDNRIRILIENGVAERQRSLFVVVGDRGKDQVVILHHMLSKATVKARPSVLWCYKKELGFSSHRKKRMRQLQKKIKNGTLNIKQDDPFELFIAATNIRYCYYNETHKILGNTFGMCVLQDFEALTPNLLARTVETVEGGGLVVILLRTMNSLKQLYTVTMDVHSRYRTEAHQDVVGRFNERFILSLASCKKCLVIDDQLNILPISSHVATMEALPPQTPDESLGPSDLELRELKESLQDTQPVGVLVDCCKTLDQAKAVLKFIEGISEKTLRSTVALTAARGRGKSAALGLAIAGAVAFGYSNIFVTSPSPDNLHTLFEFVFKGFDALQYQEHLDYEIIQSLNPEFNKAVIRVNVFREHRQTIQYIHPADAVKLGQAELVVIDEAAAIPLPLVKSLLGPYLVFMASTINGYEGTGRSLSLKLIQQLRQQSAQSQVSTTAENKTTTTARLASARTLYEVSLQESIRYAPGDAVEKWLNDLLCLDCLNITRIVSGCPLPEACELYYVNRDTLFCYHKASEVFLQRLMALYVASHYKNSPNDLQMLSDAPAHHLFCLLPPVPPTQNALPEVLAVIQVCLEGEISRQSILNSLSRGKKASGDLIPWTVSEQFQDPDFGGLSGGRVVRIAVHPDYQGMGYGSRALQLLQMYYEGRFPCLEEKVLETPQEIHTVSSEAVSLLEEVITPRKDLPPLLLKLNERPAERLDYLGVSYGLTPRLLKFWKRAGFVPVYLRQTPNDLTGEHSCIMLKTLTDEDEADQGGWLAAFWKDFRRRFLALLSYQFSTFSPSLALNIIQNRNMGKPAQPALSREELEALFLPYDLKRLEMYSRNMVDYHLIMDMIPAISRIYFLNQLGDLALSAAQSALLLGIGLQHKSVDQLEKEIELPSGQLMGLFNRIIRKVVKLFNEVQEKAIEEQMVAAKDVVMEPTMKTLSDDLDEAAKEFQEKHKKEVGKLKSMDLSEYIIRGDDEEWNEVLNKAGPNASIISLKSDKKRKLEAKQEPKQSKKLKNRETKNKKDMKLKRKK

[10] = target: HDAC1, HeLa nuclear extract (human) (UniProt Q13547); conditions: enhanced in nocodazole-arrested cells; Pull-down: 20 mM HEPES pH 7.9, 100 mM KCl, 10% glycerol, 0.05% CHAPS, poly(dIdC), oligo B, acetylated BSA, room temperature; protein in an extract; label: 5' biotin-TEG on antisense strand
[11] = target: T7, MIDEAS (ELMSAN1/C14orf43), HeLa nuclear extract (human) (UniProt Q6PJG2); conditions: enhanced in nocodazole-arrested cells; Pull-down: 20 mM HEPES pH 7.9, 100 mM KCl, 10% glycerol, 0.05% CHAPS, poly(dIdC), oligo B, acetylated BSA, room temperature; protein in an extract; label: 5' biotin-TEG on antisense strand
T7 sequence (looked up, limits assumed): T1 sequence (looked up, limits assumed)

[12] = target: T8, MIDEAS, Jurkat nuclear extract (human) (UniProt Q6PJG2); conditions: Pull-down: 20 mM HEPES pH 7.9, 100 mM KCl, 10% glycerol, 0.05% CHAPS, poly(dIdC), oligo B, acetylated BSA, room temperature; protein in an extract; label: 5' biotin-TEG on antisense strand
T8 sequence (looked up, limits assumed): T1 sequence (looked up, limits assumed)

Measured: binding result

CTAGAGTAGCAGAGCTCTGGTAGCTAGAAAGCATG / CATGCTTTCTAGCTACCAGAGCTCTGCTACT [Scr (affinity)]
binds: [1] | [2]

CTAGATGCTGCATATAAGCACGTGCTTTTTGCATG / CATGCAAAAAGCACGTGCTTATATGCAGCAT [HIV-USF1KO (affinity)]
binds: [3] | [4] | [5]

CTAGATGCTGCATATAAGCAGCTGCTTTTTGCATG / CATGCAAAAAGCAGCTGCTTATATGCAGCAT [HIV-wt TASHET (affinity)]
not listed: [1] | [2]
binds: all other assays above
